The target of this experiment is p24 of HIV-1 NL4-3 (from the proviral plasmid pNL4-3) (HIV-1 NL4-3 (gag from isolate NY5, …, UniProt P12493, strain)). Nature of the experiment: immunostaining of cells or tissue. The note with it: one partner purified.

B1: A10F9 monoclonal antibody (antibody, V domains shown)
VH: DVKLVESGGGLVKPGGSLKLSCAASGFTFSSYTMSWVRQTPEKRLEWVAIISSGGSYTYYSDSVKGRFTISRDNAKNTLYLQMSSLKSEDTAMYYCTRDEGNGNYVEAMDYWGQGTSVTVSS
VL: DIQMTQSPASLSASVGETVTITCRASGNIHNYLAWYQQKQGKSPQLLVYNAKTLADGVPSRFSGSGSGTQYSLKINSLQPEDFGSYYCQHFWSTPRTFGGGTKLEIK
notes: also called A10F9 mAb; mAb A10F9
As to B1, the binding result is on record as “binds”.
